Assay: xn = mol fraction of the nth substance listed
Details: 101 kPa, Liquid; for speed of sound: Sing-around technique in a fixed-path interferometer; for mass density: Vibrating tube method

CCCCOP(=O)(OCCCC)OCCCC [tributyl phosphate] + CCCCCCCCO
Details	mass density, 298.15 K [kg/m3]	mass density, 303.15 K [kg/m3]	mass density, 308.15 K [kg/m3]	speed of sound, 298.15 K [m/s]	speed of sound, 303.15 K [m/s]	speed of sound, 308.15 K [m/s]
x1 = 0.016	825.66	822.16	818.64	1344	1327	1310
x1 = 0.032	829.43	825.92	822.38	1341	1324	1307
x1 = 0.049	833.45	829.91	826.35	1337	1320	1303
x1 = 0.1	844.7	841.09	837.47	1328	1311	1294
x1 = 0.2	864.91	861.18	857.44	1312	1295	1278
x1 = 0.301	883.29	879.45	875.61	1300	1283	1266
x1 = 0.398	899.38	895.45	891.51	1291	1274	1257
x1 = 0.502	914.86	910.85	906.83	1283	1266	1249
x1 = 0.602	928.59	924.51	920.42	1277	1260	1243
x1 = 0.704	941.3	937.15	932.99	1273	1256	1239
x1 = 0.803	952.67	948.47	944.26	1269	1252	1236
x1 = 0.9	962.97	958.71	954.45	1267	1250	1233
x1 = 0.919	964.88	960.61	956.34	1267	1250	1233
x1 = 0.946	967.61	963.32	959.03	1266	1249	1232
x1 = 0.971	970.09	965.79	961.49	1266	1249	1232
x1 = 1	972.77	968.46	964.15	–	–	–

Source: the NIST ThermoML archive (doi:10.1016/j.jct.2013.10.018)
